Assay results taken from US20210254138A1, “SIALIC ACID TRANSPORTER PROTEINS AS BIOMARKERS AND DRUG TARGETS” (Quadram Institute Bioscience, priority 2018, published 2021).

Test system: RgSBP (RUMGNA_02698, solute binding protein)
Test: Isothermal titration calorimetry (ITC) of RgSBP binding
Set-up: species or system R. gnavus ATCC 29149
Experimental: Isothermal titration calorimetry (ITC) experiments were performed using the PEAQ-ITC system (Malvern, Malvern, UK) with a cell volume of 200 μl. Prior to titration, protein samples were exhaustively dialysed into 50 mM Tris-HCl pH 7.5. The ligand was dissolved in the dialysis buffer. The cell protein concentration was 100 μM and the syringe ligand concentration was 2 mM. Controls with titrant (sugar) injected into the buffer only were subtracted from the data. The analysis was performed using the Malvern software, using a single-binding site model. Experiments were carried out in triplicate.

CC(=O)N[C@H]1C2OC(C(=O)O)(C[C@@H]1O)O[C@@H]2[C@H](O)CO (stereo partly drawn) [2,7-anhydro-Neu5Ac]
ΔG of binding: -33.4 ± 0.21 kJ/mol | ΔH of binding: -3.89 ± 0.13 kJ/mol | −TΔS of binding: -29.5 ± 0.33 kJ/mol
